Read-outs that look alike come from different tables or passages of the source.
T1: gp41 loop peptide antigen (linear peptide, HIV-1 consensus clade B sequence) (HIV-1 consensus clade B (synthetic …))
T1 chain: LGIWGCSGKLICTT

B1: MAb 7B2 (antibody, V domains shown)
VH: QVQLVQSGGGVFKPGGSLRLSCEASGFTFTEYYMTWVRQAPGKGLEWLAYISKNGEYSKYSPSSNGRFTISRDNAKNSVFLQLDRLSADDTAVYYCARADGLTYFSELLQYIFDLWGQGARVTVSS
VL: DIVMTQSPDSLAVSPGERATIHCKSSQTLLYSSNNRHSIAWYQQRPGQPPKLLLYWASMRLSGVPDRFSGSGSGTDFTLTINNLQAEDVAIYYCHQYSSHPPTFGHGTRVELR
notes: source: tissue culture (hybridoma) supernatant, purified on Protein A agarose beads
B2: 7B2-PAC immunotoxin (MAb 7B2 conjugated to recombinant pulchellin A chain) (antibody, V domains shown)
VH: B1 VH
VL: B1 VL

Target: T1, gp41 loop peptide antigen (linear …)
Experiment: ELISA

Binder	binding result (both partners purified)	binding result
B1	binds	
B2		binds

— paper PMC5548917, “Selective cytotoxicity of a novel immunotoxin based on pulchellin A chain for cells expressing HIV envelope” (Scientific Reports, 2017)
